Measured values: patent publication US20210221791A1, “COMPOUNDS” (UNIVERSITETET I OSLO, priority 2016, published 2021)
Read-outs that look alike come from different tables or passages of the source.

Test system: K. pneumoniae K66-45
Format: cell-based
Method: After plating and grown overnight at 37° C., only single colonies, ignoring any touching the edges of the plate, were counted.
10^9 CFU K66-45 (Mueller-Hinton broth, no selection) was plated and grown overnight, 37° C. Only single colonies, ignoring any touching the edges of the plate, were counted.

SMILES: CN(C[C@H](O)[C@@H](O)[C@H](O)[C@H](O)CO)C(=O)c1ccc(CN(Cc2ccccn2)Cc2ccccn2)nc1 [Example 26, 6-((bis(pyridin-2-ylmethyl)amino)methyl)-N-methyl-N-((2S,3R,4R,5R)-2,3,4,5,6-pentahydroxyhexyl)nicotinamide]
- Resistance/mutant frequency (number of colonies) (inhibitor 15 mg/L, 4 mg/L MEM): 4
- Resistance/mutant frequency (number of colonies) (inhibitor 15 mg/L, 8 mg/L MEM): n.c. (n.c. = no colonies)
- Resistance/mutant frequency (number of colonies) (inhibitor 25 mg/L, 4 mg/L MEM): n.c. (n.c. = no colonies)
- Resistance/mutant frequency (number of colonies) (inhibitor 25 mg/L, 8 mg/L MEM): n.c. (n.c. = no colonies)
- Resistance/mutant frequency (number of colonies) (inhibitor 50 mg/L, 4 mg/L MEM): n.c. (n.c. = no colonies)
- Resistance/mutant frequency (number of colonies) (inhibitor 50 mg/L, 8 mg/L MEM): n.c. (n.c. = no colonies)
